Experimental data published in patent US20220053773A1 (priority 2018, published 2022).
≈ marks a conversion by molar mass, not a printed value.

How the values were obtained:
[1] = test system: E. coli strains resistant to 11P; experiment: Activity on E. coli strains evolved in vitro to resist 11P; assay type: cell-based; settings: BL21 and ATCC 25922 resistant to 11P
[2] = test system: Pseudomonas Resistant BAA-2114; experiment: MIC against resistant Pseudomonas; settings: Table 9 lower part, c6
[3] = test system: Xanthomonas Perforans BAA983; experiment: MIC against Xanthomonas perforans; settings: Table 9 lower part, c9
[4] = test system: Xanthomonas Euvesicatoria 11633; experiment: MIC against Xanthomonas euvesicatoria; settings: Table 9 lower part, c10

Question: `CC[C@H](C)[C@H](NC(=O)[C@H](CCCCN)NC(=O)[C@H](CC(C)C)NC(=O)[C@@H](NC(=O)[C@H](CCCCN)NC(=O)[C@H](CCCCN)NC(=O)[C@@H](NC(=O)[C@H](CC(C)C)NC(=O)[C@H](CCCCN)NC(=O)[C@@H](N)CCCCN)[C@@H](C)CC)[C@@H](C)CC)C(=O)N[C@@H](CC(C)C)C(=O)O` [Peptide P11, KKLIKKILKIL] was tested. Which “rise of MIC in resistant E. coli strains” value [1] did it give?
Answer: 10-20 fold

Question: Which results are given for `CC[C@H](C)[C@@H]1NC(=O)[C@H](CCCCN)NC(=O)[C@H](CC(C)C)NC(=O)[C@H]([C@@H](C)CC)NC(=O)[C@H](CCCCN)NC(=O)[C@H](CCCCN)NC(=O)[C@H]([C@@H](C)CC)NC(=O)[C@H](CC(C)C)NC(=O)[C@H](CCCCN)NC(=O)[C@H](CCCCN)NC(=O)[C@H](CCCNC(=N)N)NC(=O)CNC(=O)[C@@H]2CCCN2C(=O)CNC(=O)[C@H](CCCCN)NC(=O)[C@H](CCCCN)NC(=O)[C@H](CC(C)C)NC(=O)[C@H]([C@@H](C)CC)NC(=O)[C@H](CCCCN)NC(=O)[C@H](CCCCN)NC(=O)[C@H]([C@@H](C)CC)NC(=O)[C@H](CC(C)C)NC(=O)[C@H](CCCCN)NC(=O)[C@H]([C@@H](C)CC)NC(=O)[C@H](CC(C)C)NC(=O)[C@H](CCCNC(=N)N)NC(=O)CNC(=O)[C@@H]2CCCN2C(=O)CNC(=O)[C@H](CC(C)C)NC1=O` [CYCLIC30P]?
Answer: MIC-human (μm) Pseudomonas Resistant BAA-2114 [2]: 10 µM (≈ 33.7 µg/mL); MIC-plant (μm) Xanthomonas Perforans BAA983 [3]: 5.0 µM (≈ 16.9 µg/mL); MIC-plant (μm) Xanthomonas Euvesicatoria 11633 [4]: 5.0 µM (≈ 16.9 µg/mL)
